# Source: patent publication US9452154B2, “Methods for treating HCV” (Gilead Sciences, Inc., priority 2010, dated 2016)
# Test system: HCV genotype 1a replicon
# Assay: Biological Example 3: antiviral combination studies with Compound 4 (MacSynergy II)
# Conditions: in combination with Compound 4
row,Structure (SMILES),Interaction
1,"Fc1ccccc1-c1nc2ccn(Cc3ccc(-c4ccc(C(F)(F)F)cc4C(F)(F)F)nn3)cc-2n1 [Compound 1, 5-((6-(2,4-bis(trifluoromethyl)phenyl)pyridazin-3-yl)methyl)-2-(2-fluorophenyl)-5H-imidazo[4,5-c]pyridine]",Minor synergy (Minor synergy: >25 and ≦50 nM^2%)
2,CC[C@@H]1C[C@]1(NC(=O)[C@@H]1C[C@@H](Oc2cc(-c3csc(NC(C)C)n3)nc3c(Cl)c(OCCN4CCOCC4)ccc23)CC1C(=O)[C@@H](NC(=O)O[C@@H]1C[C@@H]2C[C@@H]2C1)C(C)(C)C)C(=O)O (stereo partly drawn) [Compound 3],Minor synergy (Minor synergy: >25 and ≦50 nM^2%)
3,"CC1=CC[C@H](C(=O)N(c2cc(C#CC(C)(C)C)sc2C(=O)O)[C@H]2CC[C@](O)(CO[C@H]3CCOC3)CC2)CC1 [Compound 5, 5-(3,3-dimethylbut-1-yn-1-yl)-3-[(cis-4-hydroxy-4-{[(3S)-tetrahydrofuran-3-yloxy]methyl}cyclohexyl){[(1R)-4-methylcyclohex-3-en-1-yl]carbonyl}amino]thiophene-2-carboxylic acid]",Minor synergy (Minor synergy: >25 and ≦50 nM^2%)
